Experimental findings from patent US10513559B2, “Amatoxin-armed therapeutic cell surface binding components designed for tumour therapy” (Deutsches Krebsforschungszentrum, priority 2009, dated 2019) are described below.

The experiment concerns SKOV-3 ovarial carcinoma cells. Description: in vivo SKOV-3 xenograft tumor model. On the set-up: species or system SCID mice. The conditions noted are these: single i.v. dose 30 or 150 μg/kg on day 10; observation 87 days. The source says:
A mouse tumor xenograft model, wherein 2.5×10^& SKOV-3 ovarial carcinoma cells are implanted sub-cutaneously (s.c.) into SCID mice and allowed to grow for 10 days. […] A clear concentration dependent reduction of tumor growth was observed.

Regarding “α-Amanitin-glutarate-Herceptin [Conjugate (15)]”, the tumor remission result was “full tumor remission”.
